As usually defined, the inhibition is the relative decrease from the control value, in per cent. Higher therefore signals a response far below the control.

For this test, the target named is Human immunodeficiency virus type 1 integrase (Human immunodeficiency virus 1) (UniProt Q7ZJM1). As to conditions: at 1 mM.

With `O=C(NOCCOc1cccc(OCCONC(=O)NP(=O)(O)O)c1)NP(=O)(O)O`, the inhibition was < 50%.

Values taken from ChEMBL document CHEMBL1133723, “Developing a dynamic pharmacophore model for HIV-1 integrase” (J Med Chem, 2000).
